## PSTVd loop 6 mutant pool in Nicotiana benthamiana

Values reported by Wu et al. 2024 (doi:10.1371/journal.ppat.1012142).

PSTVd intermediate strain, loop 6: wild type UGACCGCGAG, pool pattern UNNNCGNNNG; upper and lower strand joined, each 5' to 3', the first 5 letters being the upper strand, closing pairs included.

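A pool of all variants was put on leaves of three Nicotiana benthamiana plants. Progeny were sequenced from the inoculated region (day 5), the margin of the inoculated leaf (day 10) and systemic leaves (day 12).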

Values are reads per thousand in the sample; higher means more abundant, 0 means not found.
Each value is the mean of three plants.
"Pool" is the share in the plasmid pool used as inoculum, on the same scale.
The inoculated region was read from the minus strand, the other sites from the plus strand.
With 36,220-57,551 reads a sample, very low values are single reads.
For reference, wild type rose from 20.7 per thousand in the pool to 195, 198, 203 (inoculated region), 629, 591, 734 (leaf margin) and 942, 870, 868 (systemic leaves).
Sequences that differ at fixed positions probably stem from PCR or sequencing errors, and defective variants can be carried along by functional ones.

sequence | pool | inoculated region | leaf margin | systemic leaves
UGCGCUCGAG | 0.0131 | 0.0118 | 0 | 0
UCGUCGAGUG | 0.222 | 0.101 | 0 | 0
UGUUCGUGAG | 0.301 | 0.112 | 0 | 0
UCUUCGAGCG | 0.275 | 0.0656 | 0.00841 | 0
UAUACGGCCG | 0.275 | 0.648 | 0.0276 | 0.0263
UGAACCAACG | 0.0131 | 0 | 0 | 0
UGCCCGGCCG | 0.0915 | 0.101 | 0 | 0
UGGACGUCCG | 0.222 | 0.143 | 0 | 0
UACUCGCAGG | 0.170 | 0.108 | 0.00773 | 0
UCCCCGGGGG | 0.157 | 0.0892 | 0.00773 | 0
UUCACGAACG | 0.340 | 0.529 | 0.0851 | 0
UUUACGAUGG | 0.314 | 0.0770 | 0 | 0
UACACGGCCG | 0.157 | 0.599 | 0.0978 | 0
UAAACGUUUG | 0.275 | 0.0896 | 0 | 0
UUUUCGCCAG | 0.131 | 0.0532 | 0 | 0
UGCCCGCUAG | 0.0915 | 0.595 | 0.0522 | 0.0468
UAGCCGGCCG | 0.261 | 0.0953 | 0 | 0
UUACCGUUAG | 0.327 | 0.206 | 0.0339 | 0
UUUCCGCAGG | 0.183 | 0.118 | 0 | 0
UUUUCGCUAG | 0.118 | 0.101 | 0.0169 | 0
UUGCCGCGAG | 0.353 | 0.198 | 0.296 | 0.0924
UCAACGGAGG | 0.170 | 0.106 | 0.00773 | 0.0202
UAAGCGAUCG | 0.366 | 0.0706 | 0 | 0
UUUACGCAGG | 0.209 | 0.113 | 0.0261 | 0
UGAACGUCGG | 0.261 | 0.162 | 0.0169 | 0
UGGCCGCCCG | 0.235 | 0.150 | 0.0169 | 0
UCGGCGGUUG | 0.523 | 0.0960 | 0.00773 | 0.00684
UGCACGCGGG | 0.196 | 0.0594 | 0.00920 | 0
UGGACGCGCG | 0.144 | 0.0712 | 0 | 0
UCCUCGGCUG | 0.196 | 0.0892 | 0 | 0
UUGUCGGACG | 0.248 | 0.0715 | 0 | 0
UAGGCGUUUG | 0.379 | 0.0717 | 0.00773 | 0
UCCCCGACUG | 0.275 | 0.136 | 0 | 0
UGGUCGGGGC | 0.0261 | 0 | 0 | 0
UUUCCGUACG | 0.340 | 0.109 | 0.0155 | 0
UGACAGAAUG | 0.0131 | 0.00579 | 0 | 0
UUAGCGGCGG | 0.144 | 0.0890 | 0.00920 | 0
UGGACGGUAG | 0.170 | 0.101 | 0.0261 | 0.0255
UAAUCGGUAG | 0.392 | 0.108 | 0 | 0
UGAACGAUAG | 0.379 | 0.637 | 0.189 | 0
UUUGCGAUUG | 0.288 | 0.0851 | 0.0155 | 0.00684
UGUCCGGACG | 0.222 | 0.0722 | 0 | 0
UCUCCGCGGG | 0.170 | 0.0836 | 0.00773 | 0
UCAACGGCCG | 0.131 | 0.694 | 0.0522 | 0
UUCACGUUGG | 0.327 | 0.0648 | 0.00773 | 0.00673
UUCGCGUGUG | 0.235 | 0.0723 | 0.0155 | 0
UUCUCGAUCG | 0.340 | 0.0772 | 0.00920 | 0
UAUGCGCGCG | 0.144 | 0.0655 | 0.00773 | 0
UGGCCGCGUG | 0.196 | 0.814 | 0.157 | 0.00684
UACCCGAAAG | 0.222 | 0.548 | 0.117 | 0
UAUUCGGCGG | 0.327 | 0.0888 | 0.00773 | 0
UGUUCGAUUG | 0.379 | 0.0827 | 0.0169 | 0
UUGACGGAGG | 0.170 | 0.0654 | 0 | 0
UGCCCGUAAG | 0.131 | 0.643 | 0.0751 | 0
UCAGCGGUCC | 0.0131 | 0 | 0 | 0
UCGGCGCCAG | 0.196 | 0.0594 | 0 | 0
UAUCCGAUAG | 0.327 | 0.113 | 0.0387 | 0
UCCCCGGAUG | 0.327 | 0.100 | 0.0276 | 0
UAAUCGGGGG | 0.105 | 0.114 | 0.00773 | 0
UGACCGGCCG | 0.157 | 0.155 | 0.459 | 0.0205
UCUGCGCGAG | 0.261 | 0.173 | 0.0253 | 0.156
UUCUCGGCUG | 0.275 | 0.0536 | 0.0155 | 0
UCUCCGUUUG | 0.235 | 0.0529 | 0.00773 | 0
UGCUCGGGCG | 0.209 | 0.0712 | 0 | 0
UGAACGACGG | 0.222 | 0.181 | 0.0169 | 0
UAAGCGAUAG | 0.445 | 0.0949 | 0.0851 | 0
UGUACGGCUG | 0.261 | 0.0949 | 0 | 0
UAGCCGCCCG | 0.405 | 0.0951 | 0.0268 | 0.0136

A selection of 3 entries from above:

sequence,pool,inoculated region,leaf margin,systemic leaves
UGGUCGGGGC,0.0261,0,0,0
UGCACGCGGG,0.196,0.0594,0.00920,0
UACUCGCAGG,0.170,0.108,0.00773,0